## PSTVd loop 6 mutant pool in Nicotiana benthamiana

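A pool of all variants was put on leaves of three Nicotiana benthamiana plants. Progeny were sequenced from the inoculated region (day 5), the margin of the inoculated leaf (day 10) and systemic leaves (day 12).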

Region: loop 6 of PSTVd (intermediate strain), upper and lower strand joined, each 5' to 3', the first 5 letters being the upper strand, closing pairs included. Wild type: UGACCGCGAG. Varied positions (N): UNNNCGNNNG.

Numbers give reads per thousand; 0 = not seen among the reads, higher = more abundant. Each value is the mean of three plants. "Pool" is the share in the plasmid pool used as inoculum, on the same scale. The inoculated region was read from the minus strand, the other sites from the plus strand. IR is the inoculated region, LM the leaf margin, Sys the systemic leaves. For reference, wild type rose from 20.7 per thousand in the pool to 195, 198, 203 (inoculated region), 629, 591, 734 (leaf margin) and 942, 870, 868 (systemic leaves). With 36,220-57,551 reads a sample, very low values are single reads. Sequences that differ at fixed positions probably stem from PCR or sequencing errors, and defective variants can be carried along by functional ones.

* UUCACGCCGG (pool 0.301): IR 0.0840; LM 0; Sys 0
* UCUCCGAUUG (pool 0.248): IR 0.113; LM 0.00773; Sys 0
* UGCUCGAGAG (pool 0.157): IR 0.149; LM 0.00920; Sys 0
* UCCCCGACAG (pool 0.405): IR 0.105; LM 0; Sys 0
* UAUGCGAUUG (pool 0.418): IR 0.125; LM 0; Sys 0.00684
* UCCACGGGAG (pool 0.157): IR 0.0773; LM 0.00773; Sys 0.00673
* UGAGCGUUGG (pool 0.288): IR 0.0831; LM 0.00773; Sys 0
* UUGUCGGAUG (pool 0.301): IR 0.0949; LM 0.00920; Sys 0
* UGUACUCGAG (pool 0.0131): IR 0.00579; LM 0; Sys 0
* UGCCCGAACG (pool 0.170): IR 0.0768; LM 0.00773; Sys 0
* UGUUCAGCGG (pool 0.0131): IR 0; LM 0; Sys 0
* UUCCCGGCUG (pool 0.105): IR 0.0472; LM 0; Sys 0
* UUGACGGGGG (pool 0.196): IR 0.0706; LM 0.0155; Sys 0
* UAUGCGUCCG (pool 0.170): IR 0.0838; LM 0.00773; Sys 0
* UAACCGGAAG (pool 0.105): IR 0.763; LM 0.0691; Sys 0
* UAGCCGAUUG (pool 0.183): IR 0.113; LM 0; Sys 0
* UUCCCGAGAG (pool 0.340): IR 0.112; LM 0.0161; Sys 0
* UGUGCGGAUG (pool 0.314): IR 0.0411; LM 0.0247; Sys 0
* UUACCGCAAG (pool 0.0915): IR 1.01; LM 0.0962; Sys 0.0857
* UCAUCGAGGG (pool 0.196): IR 0.0952; LM 0; Sys 0
* UGCACGUUAG (pool 0.209): IR 0.0900; LM 0; Sys 0
* UGAACGUAUG (pool 0.261): IR 0.155; LM 0.127; Sys 0
* UGCUCGUCUG (pool 0.235): IR 0.0710; LM 0.00773; Sys 0.00684
* UGAACGUAGG (pool 0.118): IR 0.113; LM 0.0169; Sys 0
* UGAACGGGAG (pool 0.157): IR 0.770; LM 0.206; Sys 0.0858
* UACACGUCUG (pool 0.275): IR 0.107; LM 0; Sys 0
* UGCACGAGGG (pool 0.157): IR 0.0955; LM 0.00773; Sys 0
* UUUCCGUGAG (pool 0.196): IR 0.132; LM 0.0387; Sys 0
* UCGGCGCACG (pool 0.327): IR 0.0775; LM 0; Sys 0
* UCAUCUGGGG (pool 0.0131): IR 0; LM 0; Sys 0
* UCAACGCCUG (pool 0.183): IR 0.119; LM 0; Sys 0
* UGUUCGUAUG (pool 0.392): IR 0.0652; LM 0.118; Sys 0
* UGCGCGAAUG (pool 0.301): IR 0.0715; LM 0; Sys 0
* UAAUCGGCGG (pool 0.261): IR 0.0835; LM 0.00920; Sys 0
* UAAGCGCAAG (pool 0.157): IR 0.729; LM 0.0759; Sys 0
* UGUGCGCUGG (pool 0.235): IR 0.0894; LM 0; Sys 0
* UAACCGGGAG (pool 0.170): IR 0.125; LM 0; Sys 0
* UAUACGGAGG (pool 0.261): IR 0.102; LM 0; Sys 0

Extract of 5 entries:

| sequence | pool | IR | LM | Sys |
|---|---|---|---|---|
| UCCACGGGAG | 0.157 | 0.0773 | 0.00773 | 0.00673 |
| UGCGCGAAUG | 0.301 | 0.0715 | 0 | 0 |
| UAUACGGAGG | 0.261 | 0.102 | 0 | 0 |
| UCAUCGAGGG | 0.196 | 0.0952 | 0 | 0 |
| UUCCCGGCUG | 0.105 | 0.0472 | 0 | 0 |

Values reported by Wu et al. 2024 (doi:10.1371/journal.ppat.1012142).